Stoichiometry N data for 1 substance are collected here from paper PMC11406233 (Proceedings of the National Academy of Sciences of the …, 2024).

The target of the test is SARS-CoV-2 main protease with the A191T substitution (M^pro_(A191T)) (SARS-CoV-2). The test is described as follows: native MS.

“SARS-CoV-2 main protease with the A191T substitution (M^pro_(A191T)) (enzyme)”: the stoichiometry N (in general, a count of units in the complex or per binding partner) is 2.
